Results: publication PMC6191537

Experiments:
CsoR wild type = assay: EMSA; conditions: anaerobic, 20 mM HEPES pH 7.0, 100 mM NaCl, 100 ng/ul poly(dI-dC), 1 mM DTT, 0.4 mg/ml BSA, room temperature, 30 min, 0.1 uM each DNA, 0-100 uM CsoR, 6% native PAGE, recombinant protein, residues 1-97, probe letters rebuilt from the primers and the genome, part of a longer molecule
CsoR CHC C41A,H66A,C70A = assay: EMSA; conditions: anaerobic, 20 mM HEPES pH 7.0, 100 mM NaCl, 100 ng/ul poly(dI-dC), 1 mM DTT, 0.4 mg/ml BSA, room temperature, 30 min, 0.1 uM each DNA, 0-100 uM CsoR, 6% native PAGE, recombinant protein, residues 1-97, probe letters rebuilt from the primers and the genome, part of a longer molecule

Row | Sequence | binding result (CsoR wild type; no Cu(I) stated) | binding result (CsoR CHC C41A,H66A,C70A; 1 mol equivalent Cu(I)) | binding result (CsoR CHC C41A,H66A,C70A; no Cu(I)) | binding result (CsoR wild type; apo-CsoR)
1 | CATATACGGGATAGGGGTATATACCATTTGACTTTTTTATTTTGTAGTGTACAGAAAATAACCATTTTCTGTACACTCTTTTTTTATATCGAAATAAGTGAGGATTACATTTATTTTTATGTTCAGAAACCCAATAAAAAATCTATGTTCATAAAAGTACCCGTATTTAAGTTATGGTACACTAATGATGGATATAGGAGGTTTGTATTTTGAAAATAGGTTATGCAAGAGTTTCAACAGGATTACAA (double strand) [PcopB] | binds | – | – | –
2 | CCACATTATTGCCTCCCTGTGATTCATTGTTACACGTCTAATGTACCCCCTATAGGTATATAAGTCAATCGTTGCGTTTTACTTTTACCAATTTTAAAAAGAAAAAGAGAGATTGCCGTGCAAACATTGCACAACAATCTCTCTATTTAGCATCTATATAAAAGAAGTCGTAATTAATATTAAAGGATGTATGAATGAAAGGTAAAACTTAAATGACTTCTGGATTTGTAATTCTTAGGTGACTTAAAAGAAAT (double strand) [PcopA] | – | binds | binds | binds

Construct, isoform or probe ends are uncertain for at least one entry.
